Here are results for 2 molecules from paper PMC11988775, “Glycyl-tRNA Synthetase as a Target for Antiviral Drug Screening Against Influenza Virus” (International Journal of Molecular Sciences, 2025).

The subject of this test is influenza viruses (A/PuertoRico/8/34 (H1N1), A/Guangdong-MaonanSWL1536/2019 (H1N1) pdm09, A/Victoria/4897/2022(H1N1), B/Colorado/06/2017(BV)). The class given is cell-based, Influenza A and B virus.

Regarding `O=c1cc(-c2ccc(O)cc2)oc2cc(O)c(O)c(O)c12` [Scutellarein], the “viral replication and spread (virus titer)” value was “consistently inhibited viral replication and spread across all tested strains”. Consider `Oc1cc2c3c(c1)c1cc4c(cc1c[n+]3CC2)OCO4` [Lycobetaine], for which the “viral replication and spread (virus titer)” value is “consistently inhibited viral replication and spread across all tested strains”.
